Measured values from patent publication US10316099.

Tests used:
[1] = molecular target: huPrP23-231 (human prion protein, residues 23 to 231) (human)
[2] = molecular target: huPrP23-231 (human prion protein, residues 23 to 231) (human); remark: listed apart in the source
[3] = molecular target: huPrP23-231 (human prion protein, residues 23 to 231) (human); remark: listed apart in the source

## ICSM-35
[1]
  Kd: 0.01 µM
  Ki: 0.02 µM
[2]
  EC50 (read off the curve): 0.006 µM
[3]
  IC50: 10.4 µM
